Measured values as given in article PMC12232896 (Angewandte Chemie (International Ed. in English), 2025).

Test system: PfDd2 resistant clones D6 and F3 (PfPI4Kβ S1320L)
Test: microbe, parasite or virus in culture
Details: Plasmodium falciparum

For CN(C)CCCOc1ccc(-c2ccc3ncc4c(c3c2)n(C2CCOCC2)c(=O)n4C)cn1 [AZD0156], which IC50 (D6, read-out: IC50 clone D6) is on record?
Its IC50 is 389 ± 13 nM.

What about the IC50 (D6, read-out: IC50 clone F3) of the same compound?
The IC50 was 337 ± 5 nM.

Where two headings read alike, the source gives them in different places.
